According to US20240409617A1:

Target: SARS-CoV-2 spike protein on stably transduced 293T cells (SARS-CoV-2)
Assay: cell-based or functional assay

With “Human ACE2, soluble, his tag (from UniProt Q9BYF1 18-740) (receptor)” the spike shedding time course, intensity relative to binding at T5 was 50%.
